Drawing on PubChem BioAssay AID602399 (Sanford-Burnham Center for Chemical Genomics, 2012), this text covers inhibition for 108 molecules.

This is a selection; strong and weak results do not stand in their true shares. The source made the active and inactive calls. No stated cut-off is given here; in the data, active means inhibition above about 26%; inactive means the rest.

Broadly, the inhibition is the relative decrease from the control value, in per cent.

In this test the test system is Nicotinate-nucleotide adenylyltransferase NadD (Staphylococcus aureus N315). The test is described as follows: S. aureus NadD enzyme activity blockers – biochemical, colorimetric, uHTS, primary screen (AID 602399). To be noted: purified NadD enzyme, colorimetric absorbance read-out; at 20 µM; hits give high values.
For `CN(C)C1(CNC(=O)c2cccc(C#N)c2)CCCCC1`, the inhibition is inactive: -2.95%. Then `c1ccc(CN2CCC(Nc3ccccc3)CC2)cc1`, with inactive: 2.21%; and `Cc1cc(N(CCCl)CCCl)ccc1C=O`, with inactive: -1.73%. In the case of `O=c1[nH]c2ccccc2n1C1CCN(C(c2ccccc2)c2nnnn2C2CCCC2)CC1` (stereo not drawn), the inhibition is inactive: 4.06%. With `CCCN1CCC(Nc2cc(OC)cc(OC)c2)CC1`, the inhibition was inactive: -1.38%. Take `CC(C)(C)n1nnnc1C(c1cccc2ccccc12)N1CCC(n2c(=O)[nH]c3ccccc32)CC1` (stereo not drawn): the inhibition was inactive: 10.2%. In the case of `N#Cc1ccc(C(=O)NCC2(N3CCCCC3)CCCCC2)cc1`, the inhibition is inactive: -2.44%. Take `CC(C)(C)OC(=O)N1CCC(N(C(=O)c2ccccc2)c2ccc(Cl)cc2)CC1`: the inhibition is inactive: -4.85%.

Take `COc1cccc(C(c2nnnn2C(C)(C)C)N2CCC(n3c(=O)[nH]c4ccccc43)CC2)c1OC` (stereo not drawn): the inhibition is inactive: 4.53%.

As to `CCOC(=O)N1CCC(Nc2ccc(C)cc2)CC1`, the inhibition was inactive: -8.63%. As for `N/C(=N\O)c1c(N)no[n+]1[O-]`, the inhibition is inactive: -3.88%. `O=C(OC1CN2CCC1CC2)C1c2ccccc2C=Cc2ccccc21` (stereo not drawn): the inhibition was inactive: -8.76%.

Turning to `O=c1[nH]c2ccccc2n1C1CCN(C(c2cccs2)c2nnnn2C2CCCC2)CC1` (stereo not drawn), the inhibition is inactive: 6.72%. For `CCCCn1nnnc1C(c1cccc(OC)c1OC)N1CCC(n2c(=O)[nH]c3ccccc32)CC1` (stereo not drawn), the inhibition was inactive: -1.78%.

With `CCCCn1nnnc1C(c1ccccc1)N1CCC(n2c(=O)[nH]c3ccccc32)CC1` (stereo not drawn), the inhibition was inactive: -1.3%. As to `COc1cc(C(=O)NCC2(N3CCOCC3)CCCCC2)cc(OC)c1C`, the inhibition was inactive: -7.18%.

With `O=C(NCC1(N2CCOCC2)CCCCC1)c1cc(Br)ccc1Cl`, the inhibition was inactive: 1%.

On to `O=c1[nH]c2ccccc2n1C1CCN(C(c2cccs2)c2nnnn2C2CCCCC2)CC1` (stereo not drawn), for which the inhibition was inactive: 9.69%.

Consider `COc1ccc(C(=O)NCC2(N3CCOCC3)CCCCC2)cc1OC`, for which the inhibition was inactive: 3.02%. As for `O=c1[nH]c2ccccc2n1C1CCN(C(c2ccnc3ccccc23)c2nnnn2C2CCCC2)CC1` (stereo not drawn), the inhibition was inactive: 14.4%. Then `COc1cccc(C(=O)N(c2cc(C)cc(C)c2)C2CCN(C(=O)OC(C)(C)C)CC2)c1`, with inactive: -0.328%. Consider `COc1cccc(C(c2nnnn2C2CCCC2)N2CCC(n3c(=O)[nH]c4ccccc43)CC2)c1OC` (stereo not drawn), for which the inhibition was inactive: 6.41%. The value for `COc1cc(OC)cc(C(=O)NCC2(N3CCOCC3)CCCCC2)c1` was inactive: -2.26%; that for `CCC(CO)(C(=O)OC1CN2CCC1CC2)c1ccccc1` (stereo not drawn) was inactive: -7.63%. Then `CN1CCC(Nc2ccc(Cl)cc2)CC1`, with inactive: 0.887%. Then `CCOc1ncccc1C(=O)NCC1(N2CCOCC2)CCCCC1`, with inactive: 4.05%. `CN1CCC(Nc2ccc(F)c(Cl)c2)CC1`: the inhibition is inactive: -6.79%. As for `CC(C)(C)OC(=O)N1CCC(Nc2ccccc2)CC1`, the inhibition was inactive: 3.95%. Regarding `NN(c1ccccc1)C1CCN(CCc2ccccc2)CC1`, the inhibition was inactive: 2.33%.

As for `O=C(O)C1(Nc2ccccc2)CCN(Cc2ccccc2)CC1`, the inhibition is inactive: -8.55%. With `CCCOc1ccc(C(=O)NCC2(N(C)C)CCCCC2)cc1`, the inhibition is inactive: -3.82%.

For the molecule `O=c1[nH]c2ccccc2n1C1CCN(C(c2cc3ccccc3o2)c2nnnn2C2CCCC2)CC1` (stereo not drawn), the inhibition was inactive: 20.3%. For `Cc1ccccc1NC1(C#N)CCN(Cc2ccccc2)CC1`, the inhibition was inactive: -2.27%. The value for `CC(C)(C)n1nnnc1C(c1ccnc2ccccc12)N1CCC(n2c(=O)[nH]c3ccccc32)CC1` (stereo not drawn) was inactive: 4.07%; that for `CCN1CCC(Nc2cccc(F)c2)CC1` was inactive: 1.35%; that for `COc1ccc(C(c2nnnn2C2CCCCC2)N2CCC(n3c(=O)[nH]c4ccccc43)CC2)cc1` (stereo not drawn) was inactive: 6.49%. For the molecule `O=C(NCC1(N2CCCCC2)CCCCC1)c1ccco1`, the inhibition was inactive: -4.19%. For `Cn1c(=O)[nH]cc(N(CCCl)CCCl)c1=O`, the inhibition was inactive: 1.33%. The value for `CN(C)c1ccc(C(=O)NCC2(N3CCCCC3)CCCCC2)cc1` was inactive: -6.2%.

For the molecule `CC(=O)N(c1ccccc1)C1CCNCC1`, the inhibition is inactive: -1.75%. Take `COc1cccc(C(c2nnnn2C2CCCCC2)N2CCC(n3c(=O)[nH]c4ccccc43)CC2)c1OC` (stereo not drawn): the inhibition was inactive: 9.53%. Take `CCC(c1nnnn1C1CCCCC1)N1CCC(n2c(=O)[nH]c3ccccc32)CC1` (stereo not drawn): the inhibition is inactive: -2.81%. Then `O=c1[nH]c2ccccc2n1C1CCN(C(c2ccnc3ccccc23)c2nnnn2C2CCCCC2)CC1` (stereo not drawn), with inactive: 6.97%. The value for `COc1cc(OC)cc(C(=O)NCC2(N3CCCCC3)CCCCC2)c1` was inactive: -0.448%; that for `Cc1ccc(C(=O)NCC2(N3CCCCC3)CCCCC2)o1` was inactive: -1.66%. The value for `Fc1ccccc1NC1CCN(Cc2ccccc2)CC1` was inactive: 1.87%; that for `Cc1ccc(NC2(C#N)CCN(Cc3ccccc3)CC2)cc1` was inactive: -0.156%; that for `O=c1[nH]c2ccccc2n1C1CCN(C(c2ccccc2)c2nnnn2C2CCCCC2)CC1` (stereo not drawn) was inactive: 9.84%. In the case of `COc1cc(C(=O)NCC2(N(C)C)CCCCC2)ccc1OC(F)F`, the inhibition is inactive: -2.16%. The value for `CCOC(=O)N1CCC(Nc2cccc(C)c2)CC1` was inactive: -1.57%; that for `O=c1[nH]c2ccccc2n1C1CCN(C(c2cccc3ccccc23)c2nnnn2C2CCCC2)CC1` (stereo not drawn) was active: 35%; that for `CC(C)(C)n1nnnc1C(c1ccccc1)N1CCC(n2c(=O)[nH]c3ccccc32)CC1` (stereo not drawn) was inactive: 3.24%. Take `O=C1CCN(Cc2ccccc2)CC1`: the inhibition was inactive: 3.17%. Take `CCOc1ccc(C)cc1CN(CCCl)CCCl`: the inhibition is inactive: 2.47%. `O=C(NCC1(N2CCCCC2)CCCCC1)c1ccc(F)cc1`: the inhibition was inactive: 0.273%. Then `CCCCOc1ccc(C(=O)NCC2(N3CCOCC3)CCCCC2)cc1`, with inactive: -2.22%. Regarding `O=P1(N(CCCl)CCCl)SCCCS1`, the inhibition is inactive: -1.46%. On to `CCCCn1nnnc1C(c1cc2ccccc2o1)N1CCC(n2c(=O)[nH]c3ccccc32)CC1` (stereo not drawn), for which the inhibition was active: 36.4%. With `CCOC(=O)N1CCC(Nc2ccc(F)cc2)CC1`, the inhibition is inactive: -1.48%. As to `COc1ccc(NC2CCN(CCc3ccccc3)CC2)c(OC)c1`, the inhibition is inactive: -5.81%.

On to `O=c1[nH]c2ccccc2n1C1CCN(C(c2ccccc2OC(F)(F)F)c2nnnn2C2CCCCC2)CC1` (stereo not drawn), for which the inhibition was inactive: 8.12%. `O=C(NCC1(N2CCCCC2)CCCCC1)c1ccc(Cl)nc1`: the inhibition is inactive: -1.78%. For `Cc1cc(C)cc(N(C(=O)c2ccccc2)C2CCN(C(=O)OC(C)(C)C)CC2)c1`, the inhibition is inactive: 2.13%. In the case of `O=C(NCC1(N2CCOCC2)CCCCC1)c1cc2ccccc2o1`, the inhibition was inactive: 3.68%. Consider `O=c1[nH]c2ccccc2n1C1CCN(C(c2cc3ccccc3o2)c2nnnn2C2CCCCC2)CC1` (stereo not drawn), for which the inhibition is inactive: 18.9%. Consider `O=C(OC1CN2CCC1CC2)C1c2ccccc2Oc2ccccc21` (stereo not drawn), for which the inhibition was inactive: -6.06%. As for `N#CC1(Nc2ccccc2)CCN(Cc2ccccc2)CC1`, the inhibition is inactive: -3.45%. In the case of `O=C(NCC1(N2CCCCC2)CCCCC1)c1ccc(Cl)s1`, the inhibition was inactive: -2.96%. Then `COc1ccc(Cl)cc1C(=O)NCC1(N2CCOCC2)CCCCC1`, with inactive: -3.31%; and `CCOC(=O)N1CCC(Nc2ccc(OC)cc2)CC1`, with inactive: -2.99%; and `CCCCn1nnnc1C(c1ccc(OC)cc1)N1CCC(n2c(=O)[nH]c3ccccc32)CC1` (stereo not drawn), with inactive: -3.89%. For `COc1ccc(C(=O)NCC2(N3CCCCC3)CCCCC2)cc1`, the inhibition was inactive: -9.28%.

`CCC(c1nnnn1C1CCCC1)N1CCC(n2c(=O)[nH]c3ccccc32)CC1` (stereo not drawn): the inhibition is inactive: 0.625%. Regarding `CC(C)(C)OC(=O)N1CCC(N(C(=O)c2ccccc2)c2ccc(F)cc2)CC1`, the inhibition was inactive: -5.02%. As for `COc1ccc(C(=O)NCC2(N3CCCCC3)CCCCC2)c(OC)c1OC`, the inhibition was inactive: 0.177%. Consider `O=C(NCC1(N2CCCCC2)CCCCC1)c1ccc(=O)[nH]c1`, for which the inhibition was inactive: 4.85%. For `CCCCn1nnnc1C(c1cccs1)N1CCC(n2c(=O)[nH]c3ccccc32)CC1` (stereo not drawn), the inhibition is inactive: 0.973%. `O=C(NCC1(N2CCCCC2)CCCCC1)c1cccs1`: the inhibition is inactive: -4.78%. Regarding `CCCCn1nnnc1C(CC)N1CCC(n2c(=O)[nH]c3ccccc32)CC1` (stereo not drawn), the inhibition was inactive: -2.97%. The value for `CSc1ccccc1C(=O)NCC1(N2CCCCC2)CCCCC1` was inactive: -6.01%; that for `Cc1cccc(NC2(C#N)CCN(Cc3ccccc3)CC2)c1` was inactive: 0.781%. The value for `O=C(NCC1(N2CCCCC2)CCCCC1)c1cncc(Br)c1` was inactive: -2.36%; that for `CN1CCC(Nc2cccc(F)c2)CC1` was inactive: 6.64%; that for `COc1ccc(C(c2nnnn2C2CCCC2)N2CCC(n3c(=O)[nH]c4ccccc43)CC2)cc1` (stereo not drawn) was inactive: 8.76%. As to `Cc1ccc(C(=O)NCC2(N(C)C)CCCCC2)o1`, the inhibition is inactive: 5.15%. Then `CCCOc1ccc(C(=O)NCC2(N(C)C)CCCCC2)cc1OC`, with inactive: -4.87%; and `CC(C)c1ccc(NC2CCN(C(=O)OC(C)(C)C)CC2)cc1`, with inactive: -1.2%.

As to `CCCCn1nnnc1C(c1ccccc1OC(F)(F)F)N1CCC(n2c(=O)[nH]c3ccccc32)CC1` (stereo not drawn), the inhibition was inactive: 1.78%. In the case of `COc1ccc(CN(CCCl)CCCl)cc1Cl`, the inhibition was inactive: 2.71%. Take `CN(C)c1cccc(C(=O)NCC2(N3CCCCC3)CCCCC2)c1`: the inhibition was inactive: 1.22%. The value for `COc1cc(OC)c(C(=O)NCC2(N(C)C)CCCCC2)cc1OC` was inactive: -4.86%. With `O=C(NCC1(N2CCOCC2)CCCCC1)c1cc(F)c(F)cc1Cl`, the inhibition is inactive: -1.48%. In the case of `CCC(c1nnnn1C(C)(C)C)N1CCC(n2c(=O)[nH]c3ccccc32)CC1` (stereo not drawn), the inhibition is inactive: -2.97%. In the case of `CCCCn1nnnc1C(c1ccnc2ccccc12)N1CCC(n2c(=O)[nH]c3ccccc32)CC1` (stereo not drawn), the inhibition was inactive: 0.649%.

As for `O=C(NCC1(N2CCCCC2)CCCCC1)c1cccc(C(F)(F)F)c1`, the inhibition is inactive: -1.81%. Consider `O=C(NCC1(N2CCOCC2)CCCCC1)c1cc(=O)[nH]c2ccccc12`, for which the inhibition is inactive: 19.5%. Take `COc1cc(C(=O)NCC2(N3CCCCC3)CCCCC2)ccc1OC(F)F`: the inhibition is inactive: -11%. Turning to `CCCCn1nnnc1C(c1cccc2ccccc12)N1CCC(n2c(=O)[nH]c3ccccc32)CC1` (stereo not drawn), the inhibition is inactive: 21.2%. Turning to `CC(C)c1ccc(C(=O)NCC2(N3CCOCC3)CCCCC2)cc1`, the inhibition is inactive: -0.261%. With `COc1ccc(NC2CCN(C(=O)OC(C)(C)C)CC2)cc1`, the inhibition is inactive: -0.177%. As for `CN1CCN(CCOC(=O)C(O)(c2ccccc2)c2ccccc2)CC1`, the inhibition is inactive: -3.58%. With `CC(C)(C)n1nnnc1C(c1ccccc1OC(F)(F)F)N1CCC(n2c(=O)[nH]c3ccccc32)CC1` (stereo not drawn), the inhibition was inactive: 0.649%. With `O=C(NCC1(N2CCCCC2)CCCCC1)c1ccc(OC(F)F)cc1`, the inhibition is inactive: 3.55%. As for `CCN1CCC(Nc2ccc(Cl)cc2)CC1`, the inhibition was inactive: -1.41%. In the case of `N#CC1(Nc2ccccc2)CCN(CCc2ccccc2)CC1`, the inhibition is inactive: -1.72%. With `O=c1[nH]c2ccccc2n1C1CCN(C(c2ccccc2OC(F)(F)F)c2nnnn2C2CCCC2)CC1` (stereo not drawn), the inhibition is inactive: 4.84%. As to `CSc1ccc(C(=O)NCC2(N3CCOCC3)CCCCC2)cc1`, the inhibition was inactive: -2.41%. For `O=C(NCC1(N2CCCCC2)CCCCC1)c1cccc([N+](=O)[O-])c1`, the inhibition was inactive: -3.56%.
